Test system: activated sludge from a municipal wastewater treatment plant (WWTP)
Assay: Biodegradability, OECD 301A DOC Die-Away Test (adjusted)

SMILES	time within which no compound could be detected (acetate+sludge) [days]	biodegradability (in 15 days, OECD 301 procedure, activated sludge) [%]	time within which no compound could be detected (without acetate) [days]
CCCCCCCCN(C)C[C@H](O)[C@@H](O)[C@@H](O)[C@H](O)C(=O)O [Compound 31, N-methyl-N-octyl-D-galacturonic acid amine]	≤ 15	90	≤ 20
CCCCCCCCCCCC[N+](C)([O-])C[C@H](O)[C@@H](O)[C@@H](O)[C@H](O)C(=O)O (stereo partly drawn) [Compound 43, N-methyl-N-dodecyl-D-galacturonic acid amine oxide]	≤ 5	–	–

Source: patent US20260008801A1, “BIO-BASED SURFACTANTS DERIVED FROM CARBOHYDRATES” (COÖPERATIE KONINKLIJKE COSUN U.A., priority 2022, published 2026)
